System: genes of Salmonella Typhimurium induced intracellularly in PAM
Test: IVET screening for intracellularly cortisol induced genes of Salmonella Typhimurium
Assay type: cell-based
[1] = PAM + 1 μM cortisol, positive of 3 independent experiments

For `C[C@]12CCC(=O)C=C1CC[C@@H]1[C@@H]2[C@@H](O)C[C@@]2(C)[C@H]1CC[C@]2(O)C(=O)CO` [cortisol, Cortisol], the “Freq. + 1 μM cortisol: STM0409” value [1] was 1/3, the “Freq. + 1 μM cortisol: STM2314” value [1] was 1/3 and the “Freq. + 1 μM cortisol: cbpA” value [1] was 3/3. The “Freq. + 1 μM cortisol: cmk” value [1] was 2/3, the “Freq. + 1 μM cortisol: gyrB” value [1] was 1/3 and the “Freq. + 1 μM cortisol: lysS” value [1] was 2/3. The “Freq. + 1 μM cortisol: marC” value [1] was 1/3, the “Freq. + 1 μM cortisol: pflC” value [1] was 3/3 and the “Freq. + 1 μM cortisol: pflD” value [1] was 3/3. The “Freq. + 1 μM cortisol: prfC” value [1] was 1/3, the “Freq. + 1 μM cortisol: proP” value [1] was 1/3 and the “Freq. + 1 μM cortisol: prpE” value [1] was 2/3. The “Freq. + 1 μM cortisol: rnT” value [1] was 1/3, the “Freq. + 1 μM cortisol: tolC” value [1] was 1/3 and the “Freq. + 1 μM cortisol: torA” value [1] was 1/3. For the same molecule, the “Freq. + 1 μM cortisol: trpS” value [1] was 1/3, the “Freq. + 1 μM cortisol: yfeC” value [1] was 1/3 and the “Freq. + 1 μM cortisol: yggE” value [1] was 2/3. The “Freq. + 1 μM cortisol: yqjE” value [1] was 1/3, the “Freq. + 1 μM cortisol: yqjg” value [1] was 1/3 and the “% + 1 μM cortisol: STM0409” value (share of tested colonies) was 0.7%. The “% + 1 μM cortisol: STM2314” value (share of tested colonies) was 0.7%, the “% + 1 μM cortisol: STM4067” value (share of tested colonies) was 36.3% and the “% + 1 μM cortisol: entF” value (share of tested colonies) was 0.7%. For the same molecule, the “% + 1 μM cortisol: gyrB” value (share of tested colonies) was 0.3%, the “% + 1 μM cortisol: lysS” value (share of tested colonies) was 1.0% and the “% + 1 μM cortisol: marC” value (share of tested colonies) was 0.3%. For the same molecule, the “% + 1 μM cortisol: menA” value (share of tested colonies) was 6.0%, the “% + 1 μM cortisol: menG” value (share of tested colonies) was 4.6% and the “% + 1 μM cortisol: prfC” value (share of tested colonies) was 0.3%. The “% + 1 μM cortisol: prpE” value (share of tested colonies) was 0.7%, the “% + 1 μM cortisol: rpoE” value (share of tested colonies) was 0.3% and the “% + 1 μM cortisol: scsA” value (share of tested colonies) was 8.1%. The “% + 1 μM cortisol: tolC” value (share of tested colonies) was 0.7%, the “% + 1 μM cortisol: ycgB” value (share of tested colonies) was 0.3% and the “% + 1 μM cortisol: yfeA” value (share of tested colonies) was 0.3%. For the same molecule, the “% + 1 μM cortisol: yfeC” value (share of tested colonies) was 0.3%, the “% + 1 μM cortisol: ygdH” value (share of tested colonies) was 0.7% and the “% + 1 μM cortisol: yjbB” value (share of tested colonies) was 0.3%. The “% + 1 μM cortisol: yqjE” value (share of tested colonies) was 1.0%.
